A mixed list of measured activities; the numbers were collected in NIAID ChemDB.

Shared fields: tests in culture; organism: Candida albicans; read-out: MIC50

Conditions beyond the fields shown may differ between rows. MIC50, MIC90 and the like: level of inhibition, or share of isolates inhibited. a–b is a range or a potency band. Blank or dashed fields: not listed here.

smiles,strain or isolate,read by,value
C[C@H]1[C@H](O)[C@@H](C)/C=C/C=C/C=C/C=C/C=C/C=C/C=C/[C@H](O[C@@H]2O[C@H](C)[C@@H](O)[C@H](N)[C@@H]2O)C[C@@H]2O[C@](O)(C[C@@H](O)C[C@@H](O)CC[C@H](O)[C@@H](O)C[C@@H](O)CC(=O)O[C@H]1C)C[C@H](O)[C@H]2C(=O)O,40 isolates azole-susceptible,,0.1 µg/mL
Clc1ccccc1C(c1ccccc1)(c1ccccc1)n1ccnc1,16 strains,,0.125 µg/mL
c1ccc(-c2c[nH]cc2C(c2ccc3ccccc3c2)n2ccnc2)cc1,33 strains,,16 µg/mL
O=C(O)c1cc2[nH]c3cc4c(=O)[nH]n(-c5ccccc5)c(=O)c4cc3c2cc1C(=O)O,Clinical isolates,agar,256 µg/mL
CCCCCCCCCCCCCCCC(=O)NC1CCC(O)NC(=O)C2C(O)C(C)CN2C(=O)C(C(O)CC(N)=O)NC(=O)C(C(O)Cc2ccc(O)c(OS(=O)(=O)O)c2)NC(=O)C2CC(O)CN2C(=O)C(C(C)O)NC1=O,FP578,,0.008 µg/mL
Clc1ccc(COC(Cn2ccnc2)c2ccc(Cl)cc2Cl)c(Cl)c1,15 isolates,,3 µg/mL
Cn1cc(-c2ccccc2)c(C(c2cccc3ccccc23)n2ccnc2)c1,33 strains,,16 µg/mL
O[C@](Cn1cncn1)(Cn1cnc(/C=C/c2ccc(OCC(F)(F)C(F)F)cc2)n1)c1ccc(F)cc1F,119 isolates,,0.015 µg/mL
Cc1cc2[nH]c3cc4c(=O)[nH]n(-c5ccccc5)c(=O)c4cc3c2cc1C,Clinical isolates,agar,32 µg/mL
C#CCNC(N)=NCCCCCCCN1CCCCCCCCN=C(N)NC1=O,53T,,5 µM
O=C1C(Sc2ccccc2)=C(Sc2ccccc2)C(=O)c2ccccc21,,,2–3 µg/mL
Cn1cc(-c2ccccc2)c(C(c2ccc3ccccc3c2)n2ccnc2)c1,33 strains,,64 µg/mL
CCC(C)CC(C)CCCCCCCCC(=O)N[C@H]1C[C@@H](O)[C@H](NCCN)NC(=O)[C@@H]2[C@@H](O)CCN2C(=O)[C@H]([C@H](O)CCN)NC(=O)[C@H]([C@H](O)[C@@H](O)c2ccc(O)cc2)NC(=O)[C@@H]2C[C@@H](O)CN2C(=O)[C@H]([C@@H](C)O)NC1=O,733 strains,,0.5 µg/mL
NC(N)=NCCCCCCCNCCCCCCCCCNC(N)=NCC1CC1,4T,,10 µM
CSc1c(S(=O)c2ccccc2)c(O)c2ccccc2c1O,,,>3 µg/mL
CCCCCOc1ccc(-c2cc(-c3ccc(C(=O)N[C@H]4C[C@@H](O)[C@@H](O)NC(=O)[C@@H]5[C@@H](O)[C@@H](C)CN5C(=O)[C@H]([C@H](O)CC(N)=O)NC(=O)[C@H]([C@H](O)[C@@H](O)c5ccc(O)c(OS(=O)(=O)O)c5)NC(=O)[C@@H]5C[C@@H](O)CN5C(=O)[C@H]([C@@H](C)O)NC4=O)cc3)no2)cc1,24 strains,,0.0156 µg/mL
CCC(C)n1ncn(-c2ccc(N3CCN(c4ccc(OC[C@H]5CO[C@](Cn6cncn6)(c6ccc(Cl)cc6Cl)O5)cc4)CC3)cc2)c1=O,50 isolates,,0.01 µg/mL
CCC(C)n1ncn(-c2ccc(N3CCN(c4ccc(OC[C@H]5CO[C@](Cn6cncn6)(c6ccc(Cl)cc6Cl)O5)cc4)CC3)cc2)c1=O,58 strains,,0.06 µg/mL
CC(C)=CCN=C(N)NCCCCCCCCCNCCCCCCCNC(N)=NCC=C(C)C,15T,,>80 µM
CCC(C)n1ncn(-c2ccc(N3CCN(c4ccc(OC[C@H]5CO[C@](Cn6cncn6)(c6ccc(Cl)cc6Cl)O5)cc4)CC3)cc2)c1=O,34 isolates,,0.03 µg/mL
CC(C)=CCN=C(N)NCCCCCCCN1CCCCCCCCN=C(N)NC1=O,53T,,20 µM
CCC(C)n1ncn(-c2ccc(N3CCN(c4ccc(OC[C@@H]5CO[C@@](Cn6cncn6)(c6ccc(F)cc6F)O5)cc4)CC3)cc2)c1=O,52 strains,,0.06 µg/mL
CCCCCCCCCCCCCCCC(=O)N[C@H]1C[C@@H](O)[C@@H](O)NC(=O)[C@@H]2[C@@H](O)[C@@H](C)CN2C(=O)[C@H]([C@@H](C)O)NC(=O)[C@H]([C@H](O)[C@@H](O)c2ccc(O)cc2)NC(=O)[C@@H]2C[C@@H](O)CN2C(=O)[C@H]([C@@H](C)O)NC1=O,FP582,,0.06 µg/mL
O=C1C(Nc2ccccc2)=C(S(=O)c2ccc(O)cc2)C(=O)c2ccccc21,,,>3 µg/mL
CC[C@@H]([C@H](C)O)n1ncn(-c2ccc(N3CCN(c4ccc(OC[C@@H]5CO[C@@](Cn6cncn6)(c6ccc(F)cc6F)C5)cc4)CC3)cc2)c1=O,13 strains (fluconazole-resistant),,2 µg/mL
C[C@@H](c1ncncc1F)[C@](O)(Cn1cncn1)c1ccc(F)cc1F,100 isolates,,≤0.06 µg/mL
c1ccc(-c2c[nH]cc2C(c2cccc3ccccc23)n2ccnc2)cc1,33 strains,,2 µg/mL
CC(=O)OCC1C=C(c2ccc(Br)cc2)C(=O)O1,9 isolates fluconazole-resistant,,2 µg/mL
IC(I)=C(I)CC1N=CN=N1,13 strains,,0.2 µg/mL
O=c1[nH]n(-c2ccccc2)c(=O)c2cc3c(cc12)[nH]c1ccc([N+](=O)[O-])cc13,Clinical isolates,agar,16 µg/mL
CCOC(=O)c1ccccc1S(=O)(=O)NC(=O)Nc1nc(Br)cc(OC)n1,,broth dilution,1 µM
c1ccc(-c2ccc(C(c3c[nH]cc3-c3ccccc3)n3ccnc3)cc2)cc1,33 strains,,12 µg/mL
Clc1ccc(C(Cn2ccnc2)OCc2csc3c(Cl)cccc23)c(Cl)c1,16 strains,,1 µg/mL
O=c1[nH]n(-c2ccccc2)c(=O)c2cc3c(cc12)[nH]c1ccc(N2CCNCC2)cc13,Clinical isolates,agar,128 µg/mL
C[C@H]1[C@H](O)[C@@H](C)/C=C/C=C/C=C/C=C/C=C/C=C/C=C/[C@H](O[C@@H]2O[C@H](C)[C@@H](O)[C@H](N)[C@@H]2O)C[C@@H]2O[C@](O)(C[C@@H](O)C[C@@H](O)CC[C@H](O)[C@@H](O)C[C@@H](O)CC(=O)O[C@H]1C)C[C@H](O)[C@H]2C(=O)O,25 isolates,,0.125 µg/mL

A second listing of 3 rows from above:

smiles	strain or isolate	read by	value
CSc1c(S(=O)c2ccccc2)c(O)c2ccccc2c1O			>3 µg/mL
O=c1[nH]n(-c2ccccc2)c(=O)c2cc3c(cc12)[nH]c1ccc(N2CCNCC2)cc13	Clinical isolates	agar	128 µg/mL
O=c1[nH]n(-c2ccccc2)c(=O)c2cc3c(cc12)[nH]c1ccc([N+](=O)[O-])cc13	Clinical isolates	agar	16 µg/mL